Compound potency records, mixed from different reports. Data source: NIAID ChemDB in PubChem.

Shared fields: tests in culture; species: HIV-1; endpoint: EC50

An empty or dashed field is not shown.

smiles	cell line	read by	strain	mutations	result
Cc1ccc(OCCNc2ccc(-c3cnc(C)c([C@H](OC(C)(C)C)C(=O)O)c3N3CCC(C)(C)CC3)cn2)cc1C	MT-2	luminescence	NL4-3	-	0.0032 µM
C#C[C@@]1(CO)C=C[C@H](n2cc(C)c(=O)[nH]c2=O)O1	MT-2	recombinant virus assay	Clinical isolate	D67N/T69N/K70R/K103N/M184V/T215F/K219Q	1.55 µM
CC(C)C1=C2[C@H]3CC[C@@H]4[C@@]5(C)CC[C@H](OC(=O)[C@H]6C[C@@H](C(=O)O)C6(C)C)C(C)(C)[C@@H]5CC[C@@]4(C)[C@]3(C)CC[C@@]2(CCNCC(C)(C)NC(=O)c2ccccc2Cl)CC1=O	MT-2	p24 / ELISA	92HT599	-	<1 µM
Cc1cc(S(N)(=O)=O)ccc1NC(=O)COc1ccc(Cl)cc1C(=O)c1cc(F)cc(C(F)(F)F)c1	HeLa + HELA CD4+	β-galactosidase	HXB2	RT-Y188C	<0.01 µM
Cc1cccc(Cl)c1OCCOc1ccc(-c2cnc(C)c([C@H](OC(C)(C)C)C(=O)O)c2N2CCC(C)(C)CC2)cn1	MT-2	luminescence	NL4-3	-	0.005 µM
Cc1cc(S(N)(=O)=O)ccc1NC(=O)COc1ccc(Cl)cc1C(=O)c1cc(F)cc(F)c1	HeLa + HELA CD4+	β-galactosidase	HXB2	RT-G190E	<0.01 µM
CC(C)C1=C2[C@H]3CC[C@@H]4[C@@]5(C)CC[C@H](OC(=O)[C@H]6C[C@@H](C(=O)O)C6(C)C)C(C)(C)[C@@H]5CC[C@@]4(C)[C@]3(C)CC[C@@]2(CC(=O)NC[C@@H](CO)NC(=O)c2ccc(Cl)cc2)CC1=O	MT-2	p24 / ELISA	92HT599	-	<1 µM
CCC(F)(F)COc1ccc(-c2cnc(C)c([C@H](OC(C)C)C(=O)O)c2N2CCC(C)(C)CC2)nc1	MT-2	luminescence	NL4-3	-	0.0079 µM
C[C@H](Cn1cnc2c(N)ncnc21)OCP(=O)(O)O	MT-2	recombinant virus assay	Clinical isolate	K65R/Y181C/G190S	0.006 µM
Cc1cc(C#N)cc(C(=O)c2cc(Cl)ccc2OCC(=O)Nc2ccc(S(N)(=O)=O)nc2C)c1	MT-4	cytopathic effect / propidium iodide	Nevirapine-resistant (RT Y181C)	RT-Y181C	<0.01 µM
CN1c2ccccc2C2C1C=C(C#N)C(=O)N2c1ccc([N+](=O)[O-])cc1	HeLa	GFP / fluorescence	O-MVP5180	-	0.01 µM
CCC(F)COc1ccc(-c2cnc(C)c([C@H](OC(C)(C)C)C(=O)O)c2N2CCC(C)(C)CC2)nc1	MT-2	luminescence	NL4-3	-	0.0043 µM
Cc1cc(C#N)cc(C(=O)c2cc(Cl)ccc2OCC(=O)Nc2cnc(S(N)(=O)=O)cc2C)c1	HeLa + HELA CD4+	β-galactosidase	HXB2	RT-P236L	<0.01 µM
Cc1nc2ccccc2c(-c2cc(F)c3c(c2C)CCCO3)c1[C@H](OC(C)(C)C)C(=O)O	MT-4	luminescence	NL4-3	T124S	0.015 µM
Cc1cc(S(N)(=O)=O)ccc1NC(=O)COc1ccc(Cl)cc1C(=O)c1cc(Cl)cc(C#N)c1	HeLa + HELA CD4+	β-galactosidase	HXB2	RT-L100I	<0.01 µM
CC1CC(C)CN(S(=O)(=O)c2ccccc2[N+](=O)[O-])C1	HeLa	GFP / fluorescence	7295-1	-	1 µM
CC1(C)CC=C(c2cn(-c3nccc(C(=O)NC4CCC(N5CC6CCC(C5)O6)CC4)n3)c3ccc(F)c([C@H](OC(C)(C)C)C(=O)O)c23)CC1	MT-4	luminescence	NL4-3	T124N/T125A	0.0058 µM
Cc1ncc(-c2ccc(OC3CC(C)C3)cn2)c(N2CCC(C)(C)CC2)c1[C@H](OC(C)(C)C)C(=O)O	MT-2	luminescence	NL4-3	-	0.005 µM
Cc1cc2cn[nH]c2cc1NC(=O)COc1ccc(Cl)cc1C(=O)c1cccc(C#N)c1	HeLa + HELA CD4+	β-galactosidase	HXB2	RT-G190A	<0.01 µM
Cc1ncc(-c2ccc(O[C@@H](C)C3CC3)nc2)c(N2CCC(C)(C)CC2)c1[C@H](OC(C)(C)C)C(=O)O	MT-2	luminescence	NL4-3	-	0.0056 µM
CC(C)C1=C2[C@H]3CC[C@@H]4[C@@]5(C)CC[C@H](OC(=O)[C@H]6C[C@@H](C(=O)O)C6(C)C)C(C)(C)[C@@H]5CC[C@@]4(C)[C@]3(C)CC[C@@]2(CCNC2(c3ncc(Cl)cn3)CC2)CC1=O	MT-2	p24 / ELISA	92HT599	-	<1 µM
CC(C)CN(C[C@@H](O)[C@H](Cc1ccccc1)NC(=O)O[C@H]1CCOC1)S(=O)(=O)c1ccc(N)cc1	MT-4	reporter gene	T21729	R41E	188 nM
CC(C)C1=C2[C@H]3CC[C@@H]4[C@@]5(C)CC[C@H](OC(=O)[C@H]6C[C@@H](C(=O)O)C6(C)C)C(C)(C)[C@@H]5CC[C@@]4(C)[C@]3(C)CC[C@@]2(CCNCC2(NC(=O)c3ccc(Cl)cc3)CCCC2)CC1=O	MT-2	p24 / ELISA	92HT599	-	<1 µM
CCC(=O)c1ccc(F)c([C@@H]2C[C@@H]2NC(=O)Nc2ccc(C#N)cn2)c1O	TZM-bl	β-galactosidase / luminescence	LAI	NNRTI-resistant (RT F227L)	0.00088 µM
CC(C)C1=C2[C@H]3CC[C@@H]4[C@@]5(C)CC[C@H](OC(=O)[C@H]6C[C@@H](C(=O)O)C6(C)C)C(C)(C)[C@@H]5CC[C@@]4(C)[C@]3(C)CC[C@@]2([C@@H](O)CNCC(C)(C)NC(=O)c2cccc(Cl)c2)CC1=O	MT-2	p24 / ELISA	92HT599	-	<1 µM
Cc1ccccc1OCCOc1ccc(-c2cnc(C)c([C@H](OC(C)(C)C)C(=O)O)c2N2CCC(C)(C)CC2)nc1	MT-2	luminescence	NL4-3	-	0.0014 µM
CC(C)C1=C2[C@H]3CC[C@@H]4[C@@]5(C)CC[C@H](OC(=O)[C@H]6C[C@@H](C(=O)O)C6(C)C)C(C)(C)[C@@H]5CC[C@@]4(C)[C@]3(C)CC[C@@]2([C@@H](O)CNC(=O)c2ccc(N3CCN(C)CC3)cc2)CC1=O	MT-2	p24 / ELISA	92HT599	-	<1 µM
Cc1cc(C#N)cc(C(=O)c2cc(Cl)ccc2OCC(=O)Nc2ccc(S(N)(=O)=O)cc2C)c1	HeLa + HELA CD4+	β-galactosidase	HXB2	RT-K103N	<0.01 µM

2 of the rows above, restated:

smiles | cell line | read by | strain | mutations | result
CC(C)C1=C2[C@H]3CC[C@@H]4[C@@]5(C)CC[C@H](OC(=O)[C@H]6C[C@@H](C(=O)O)C6(C)C)C(C)(C)[C@@H]5CC[C@@]4(C)[C@]3(C)CC[C@@]2([C@@H](O)CNCC(C)(C)NC(=O)c2cccc(Cl)c2)CC1=O | MT-2 | p24 / ELISA | 92HT599 | - | <1 µM
CCC(=O)c1ccc(F)c([C@@H]2C[C@@H]2NC(=O)Nc2ccc(C#N)cn2)c1O | TZM-bl | β-galactosidase / luminescence | LAI | NNRTI-resistant (RT F227L) | 0.00088 µM

Neighbouring rows are from separate reports. ECn is the concentration giving n% inhibition of infection, replication or growth.